The target of data set [1] is urease (UreABC)3 of the Strep-tag II (UreABC)3:UreDFG complex (Klebsiella aerogenes). The data set can be described thus: native MS.
The data set “SEC” concerns the molecule itself. The data set can be described thus: SEC.

Consider two molecules from paper PMC3788043 (Journal of the American Society for Mass Spectrometry, 2013).

B1: UreDFG with UreG fused to Strep-tag II (complex, Klebsiella aerogenes)
chain 1: MLPPLKKGWQATLDLRFHQAGGKTVLASAQHVGPLTVQRPFYPEEETCHLYLLHPPGGIVGGDELTISAHLAPGCHTLITMPGASKFYRSSGAQALVRQQLTLAPQATLEWLPQDAIFFPGANARLFTTFHLCASSRLLAWDLLCLGRPVIGETFSHGTLSNRLEVWVDNEPLLVERLHLQEGELSSIAERPWVGTLLCYPATDALLDGVRDALAPLGLYAGASLTDRLLTVRFLSDDNLICQRVMRDVWQFLRPHLTGKSPVLPRIWLT
chain 2: MSTAEQRLRLMQLASSNLPVGGYSWSQGLEWAVEAGWVLDVAAFERWQRRQMTEGFFTVDLPLFARLYRACEQGDIAAAQRWTAYLLACRETRELREEERNRGAAFARLLSDWQPDCPPPWRSLCQQSQLAGMAWLGVRWRIALPEMALSLGYSWIESAVMAGVKLVPFGQQAAQQLILRLCDHYAAEMPRALAAPDGDIGSATPLAAIASARHETQYSRLFRS
chain 3: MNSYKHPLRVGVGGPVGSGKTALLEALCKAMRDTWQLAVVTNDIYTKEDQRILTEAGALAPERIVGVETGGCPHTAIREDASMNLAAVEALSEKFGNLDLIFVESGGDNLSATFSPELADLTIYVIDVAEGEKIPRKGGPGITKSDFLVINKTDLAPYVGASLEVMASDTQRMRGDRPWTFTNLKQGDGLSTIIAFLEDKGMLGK
The term stoichiometry N denotes a count of units in the complex or per binding partner. On to B1, for which, in data set [1], the “stoichiometry N” value was found to be 2.

B2: (MBP-UreD:UreF:UreG)2 accessory protein complex (complex, Klebsiella aerogenes)
chain 1: B1 chain 1
chain 2: B1 chain 2
chain 3: B1 chain 3
Turning to B2, the “stoichiometry N” value in “SEC” was 2.
